# PMC8608293, “A single amino acid polymorphism in a conserved effector of the multihost blast fungus pathogen expands host-target binding spectrum” (2021)
# Target: sHMA94 (recombinant, E. coli, tag cleaved, for ITC) (Setaria italica)
# Assay: ITC
substance,measurement,value
"APikL2F (recombinant, E. coli) (natural protein)",Kd,146 nM
